Data as given in PubChem BioAssay AID624099 (ICCB-Longwood, 2012).

Purpose: 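Human genes that papillomavirus E2 requires to repress the HPV18 LCR promoter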 (primary screen)
System: human C33A cervical carcinoma cells (HPV-negative) stably expressing BPV1 E2 and an HPV18 LCR luciferase reporter
Reagents: siRNA pool against human genes, 40 nM
Time to read-out: 72 h
Read-out: 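Per-well luciferase luminescence, z-scored on each plate against the plate mean and SD with control wells left out, then averaged across three replicate plates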
Reading the numbers: mean z-score and z-score: higher = stronger reporter signal, weaker E2 silencing
Hit rule: 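Hit if mean z-score reaches 2 and two or more of three replicate z-scores also reach 2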
This is one part, drawn at random, of about 21,000 deposited reagents. Over the whole deposit, 497 (2.4%) were called active. 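Higher z means weaker E2 silencing; only reporter increases were scored, and knock-downs that hurt cell survival may mask genuine repressor factors.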 No sequences are given here.

TMPRSS11BNL — mean z-score: -0.52; z-score, replicate A: -0.79; z-score, replicate B: -0.55; z-score, replicate C: -0.22; Outcome: inactive
TXNRD1 — mean z-score: -0.34; z-score, replicate A: 0.13; z-score, replicate B: -0.44; z-score, replicate C: -0.72; Outcome: inactive
SV2B — mean z-score: 0.63; z-score, replicate A: 0.28; z-score, replicate B: 0.81; z-score, replicate C: 0.8; Outcome: inactive
WDR4 — mean z-score: 0.54; z-score, replicate A: 0.47; z-score, replicate B: 0.57; z-score, replicate C: 0.57; Outcome: inactive
GKAP1 — mean z-score: 0.28; z-score, replicate A: 0.46; z-score, replicate B: 0.35; z-score, replicate C: 0.03; Outcome: inactive
LOC392473 (retired record) — mean z-score: 2.05; z-score, replicate A: 2.35; z-score, replicate B: 1.9; z-score, replicate C: 1.92; Outcome: inactive
MMP19 — mean z-score: 1.27; z-score, replicate A: 1.19; z-score, replicate B: 1.34; z-score, replicate C: 1.29; Outcome: inactive
MTA1 — mean z-score: -0.44; z-score, replicate A: -0.78; z-score, replicate B: -0.19; z-score, replicate C: -0.35; Outcome: inactive
F11R — mean z-score: -0.13; z-score, replicate A: -0.06; z-score, replicate B: -0.05; z-score, replicate C: -0.27; Outcome: inactive
LINC00649 — mean z-score: 0.42; z-score, replicate A: 0.17; z-score, replicate B: 0.32; z-score, replicate C: 0.76; Outcome: inactive
IFIT2 — mean z-score: 0.62; z-score, replicate A: 0.47; z-score, replicate B: 0.82; z-score, replicate C: 0.58; Outcome: inactive
BPY2 — mean z-score: -0.73; z-score, replicate A: -0.51; z-score, replicate B: -0.83; z-score, replicate C: -0.85; Outcome: inactive
CDKN2B — mean z-score: 1.32; z-score, replicate A: 2.22; z-score, replicate B: 1.07; z-score, replicate C: 0.65; Outcome: inactive
RCBTB2 — mean z-score: 0.91; z-score, replicate A: 1; z-score, replicate B: 1.19; z-score, replicate C: 0.54; Outcome: inactive

Single entries from the list:
Entry for IFIT2 in “z-score, replicate B”: 0.82
Value of MTA1 under “z-score, replicate A”: -0.78
